In PubChem BioAssay AID898 (University of Pittsburgh Molecular Library Screening Center, 2007) one finds inhibition data, which are given here for 70 compounds.

Only a part is listed here, and it is no random draw. Active and inactive are the calls of the source. Cut-off read from the data, not from the text of the source: active = inhibition above about 50%; inactive = the rest.

This assay deals with YopH tyrosine phosphatase [Yersinia enterocolitica]. The assay is described as follows: inhibition of Yersinia YopH phosphatase – biochemical, fluorescence Ex485/Em525, primary screen (AID 898). To be noted: hits give high values, concentration not given here.
In the case of `CN(C)C(=O)OCCc1n(C)cc[n+]1C`, the inhibition (in general, the relative decrease from the control value, in per cent) was inactive: -32.8%. As for `CC(C)C(=O)NC(Sc1ccccc1)C(Cl)(Cl)Cl` (stereo not given), the figure is inactive: -38.2%; as for `O=P(Nc1nccs1)(c1ccccc1)c1ccccc1`, inactive: 13.7%; as for `c1nnnn1CCn1cnnn1`, inactive: -26%.

For `CCOP(C)(=S)SCC(=O)NC(C)(CC)C(=O)O` (stereo not given), the inhibition is inactive: -27.8%. As for `CP(=O)(Nc1ccc2c(c1)OCCO2)Oc1ccccc1` (stereo not given), the figure is inactive: -3.46%; as for `Cc1ccccc1NP(C)(=O)Nc1ccccc1C`, inactive: -50%; as for `COc1ccc(OP(C)(=O)Nc2cccc(Br)c2)cc1` (stereo not given), inactive: -27.9%.

On to `CN(C)CCOC(=O)C(O)(c1ccccc1)C1CCCCC1` (stereo not given), for which the inhibition is inactive: -6.6%. As for `CC(=O)NC(SC(=S)N(C)C)C(Cl)(Cl)Cl` (stereo not given), the figure is inactive: -23.4%. As for `O=C(OC1CN2CCC1CC2)c1cccc(Cl)c1` (stereo not given), the figure is inactive: -32.3%; as for `C(Cc1nn[nH]n1)Cc1nn[nH]n1`, inactive: -27.6%; as for `CCOC(=O)NC(Sc1ccccc1)C(Cl)(Cl)Cl` (stereo not given), inactive: 8.08%.

As for `CCOC(=O)c1ccc(NP(C)(=O)Oc2ccc(F)cc2)cc1` (stereo not given), the inhibition was inactive: -25.8%. As to `CCN(CC)CCCOC(=O)C(O)(c1ccccc1)C1CCCCC1` (stereo not given), the inhibition was inactive: -0.26%. Consider `CCC(=O)N1C2C3N(C(=O)CC)C1C1N(C(=O)CC)C(C(N1C(=O)CC)N3C(=O)CC)N2C(=O)CC`, for which the inhibition was inactive: 7.44%. Take `CC(=O)NC(SC(=S)N(CC(C)C)CC(C)C)C(Cl)(Cl)Cl` (stereo not given): the inhibition was inactive: -14.9%. Take `COC(=O)c1cc2c(s1)N=C(c1ccccc1)N(C)P2(=O)N1CCOCC1` (stereo not given): the inhibition was inactive: -30.4%. With `CP(=O)(Nc1ccccc1)Oc1ccc(F)cc1` (stereo not given), the inhibition was inactive: -13.2%. With `O=P1(Nc2nc3ccc(Cl)cc3s2)COc2ccccc2O1` (stereo not given) the figure was inactive: -36.5%; with `CC(C)c1ccc(OP(C)(=O)Nc2ccc(SC(F)(F)F)cc2)cc1` (stereo not given), inactive: -16.1%; with `CP(=O)(Nc1ccccc1F)Oc1ccccc1` (stereo not given), inactive: -45.8%. As to `O=C(OCCN1CCN(CCOCc2ccccc2)CC1)C(O)(c1ccccc1)c1ccccc1`, the inhibition was inactive: -24.4%.

As for `Cc1cc(C)cc(OP(C)(=O)Nc2ccc(C)cc2C)c1` (stereo not given), the inhibition was inactive: -6.44%. Regarding `Cc1cccc(OCC(=O)OC2CN3CCC2CC3)c1` (stereo not given), the inhibition was inactive: -5.53%. As for `CCOC(=O)c1ccc(NP(C)(=O)Oc2cc(C)cc(C)c2)cc1` (stereo not given), the figure is inactive: -17.9%; as for `Cc1ccc(NCCc2c([N+](=O)[O-])cc([N+](=O)[O-])cc2[N+](=O)[O-])cc1`, inactive: -22.6%. As for `Cc1cc(C)cc(OP(C)(=O)Nc2ccccn2)c1` (stereo not given), the figure is inactive: -33.3%; as for `Cc1ccc(C)c(NP(C)(=O)Oc2ccccc2)c1` (stereo not given), inactive: -18.5%; as for `CCOP(=O)(Nc1cccc2ccccc12)OCC`, inactive: -23.5%.

Regarding `O=P(Nc1nccs1)(c1ccccc1)c1nc2ccccc2s1` (stereo not given), the inhibition is inactive: -30.2%.

For `CCOP1(=S)c2c(C)nn(CCC#N)c2N=C(c2ccccc2F)N1C` (stereo not given), the inhibition is inactive: 6.92%. As for `CCOP1(=S)c2c(C)nn(CCC#N)c2N=C(c2ccc(F)cc2)N1C` (stereo not given), the figure is inactive: 3.69%; as for `CC1=NCCc2c1[nH]c1ccccc21.O=[N+]([O-])c1cc([N+](=O)[O-])c(O)c([N+](=O)[O-])c1`, inactive: -24.1%; as for `O=[N+]([O-])c1ccc2c(c1)nnn2O`, inactive: -33.3%. As for `Cc1nn(-c2ccccc2)c2c1P(=O)(N1CCOCC1)N(C)C(c1ccccc1)=N2` (stereo not given), the figure is inactive: -55.2%; as for `COc1cc(C2NCCC3(OCCO3)C2(C)C)cc(OC)c1OC.O=[N+]([O-])c1cc([N+](=O)[O-])c(O)c([N+](=O)[O-])c1` (stereo not given), inactive: -5.17%.

For the compound `COc1ccccc1OP(C)(=O)Nc1c(C)cccc1C` (stereo not given), the inhibition is inactive: -0.13%. As to `CN1CCCCC1COC(=O)C1(O)c2ccccc2CCc2ccccc21` (stereo not given), the inhibition is inactive: -28.7%. On to `O=P1(Nc2ncccn2)COc2ccccc2OC1`, for which the inhibition was inactive: -29.3%. Consider `CP(=O)(Nc1ccc(SC(F)(F)F)cc1)Oc1ccccc1` (stereo not given), for which the inhibition is inactive: -11.6%. With `Cc1ccc(OCC(=O)OC2CN3CCC2CC3)cc1` (stereo not given) the figure was inactive: -82.1%; with `O=P1(Nc2ccc(Br)cn2)COc2ccccc2OC1`, inactive: -47.4%. As for `O=P1(Nc2ccccn2)COc2ccccc2OC1`, the figure is inactive: -11.8%; as for `Clc1n[nH]nc1-c1nn[nH][15n]1`, inactive: -23.4%; as for `CC1(CBr)Cn2c(nc3ccccc3c2=O)S1` (stereo not given), inactive: -25.6%. With `Cc1nc2ccc3ccccc3c2s1.O=[N+]([O-])c1cc([N+](=O)[O-])c(O)c([N+](=O)[O-])c1` the figure was inactive: -44.5%. As to `COP1(=S)c2c(C)nn(CCC#N)c2N=C(c2ccc(F)cc2)N1C` (stereo not given), the inhibition was inactive: -34.7%. On to `Cc1cccc(C)c1OP(C)(=O)Nc1ccc(SC(F)(F)F)cc1` (stereo not given), for which the inhibition is inactive: -26.4%. As for `Cc1cc(C)cc(OP(C)(=O)Nc2ccc(SC(F)(F)F)cc2)c1` (stereo not given), the figure is inactive: 24.1%; as for `O=C(COc1ccccc1)OC1CN2CCC1CC2` (stereo not given), inactive: -43.5%. With `CP(=O)(NC(=O)Nc1ccccc1)Oc1ccccc1` (stereo not given) the figure was inactive: -34.4%; with `CCOP(C)(=S)SCC(=O)NC(C)C(=O)O` (stereo not given), inactive: -6.92%; with `CCOC(=O)c1ccc(NP(C)(=O)Oc2ccc(OC)cc2)cc1` (stereo not given), inactive: -36.6%. Turning to `CCC(C)N(CC(C)C)C(=S)SC(NC(C)=O)C(Cl)(Cl)Cl` (stereo not given), the inhibition was inactive: -6.91%. Regarding `CP(=O)(Nc1ccccn1)Oc1ccc(Cl)cc1` (stereo not given), the inhibition was inactive: -20.4%. Consider `Cc1cc(SC(NC(=O)c2ccccc2)C(Cl)(Cl)Cl)nc(C(C)C)n1` (stereo not given), for which the inhibition was inactive: -21.5%. As for `CP(=S)(Nn1cnnc1)Oc1ccccc1` (stereo not given), the figure is inactive: -3.86%. In the case of `CP(=O)(Nc1ccccc1Br)Oc1ccccc1` (stereo not given), the inhibition is inactive: -8.66%. For the compound `CC(C)(C)c1ccc(OP(C)(=O)Nc2ccc(SC(F)(F)F)cc2)cc1` (stereo not given), the inhibition was inactive: -12.8%. With `Cc1ccc2nc3c(c(C)c2c1)CC(C(Cl)Cl)S3` (stereo not given) the figure was inactive: -31.7%; with `ClCCSc1nnc(-c2cccnc2)o1`, inactive: -110%; with `CCOC(=O)c1ccc(NP(C)(=O)Oc2ccccc2)cc1` (stereo not given), inactive: -20.2%.

As for `Cc1ccc(NP(C)(=O)Oc2ccccc2)c(C)c1` (stereo not given), the inhibition is inactive: -46.3%.

As for `COc1ccccc1OP(C)(=O)Nc1ccc(C)cc1` (stereo not given), the inhibition was inactive: -17.6%. As for `COc1ccc(OP(C)(=O)Nc2cccc(F)c2)cc1` (stereo not given), the figure is inactive: -7.76%; as for `O=[N+]([O-])c1cc([N+](=O)[O-])c(-c2ccn[nH]2)s1`, inactive: 0.15%; as for `CCN(CC)C(=S)SC(NC=O)C(Cl)(Cl)Cl` (stereo not given), inactive: -24.5%. As for `Cc1c2c(nc3ccccc13)SC(C(Cl)Cl)C2` (stereo not given), the figure is inactive: -33.1%. As for `O=C(OC1CN2CCC1CC2)C12CC3CC(CC(C3)C1)C2` (stereo not given), the figure is inactive: 9.26%.
